Anti-infective test results gathered from many reports (values: NIAID ChemDB through PubChem).

All rows: target-level tests; organism: HIV-1; target: Protease; read-out: IC50

ICn is the concentration giving n% inhibition. Lines come from different laboratories, so protocols vary. Blank or dashed fields: not listed here.

structure | mutations | read by | setting | value
CCCC[C@H](NC(=O)OCc1ccccn1)C(=O)N[C@@H](Cc1ccccc1)[C@@H]1O[C@@H]1[C@H](Cc1ccccc1)NC(=O)[C@H](CCCC)NC(=O)OCc1ccccn1 | - | fluorescence | - | >1000 µg/mL
CC(C)(C)NC(=O)c1ccccc1C[C@@H](O)[C@H](Cc1ccccc1)NC(=O)[C@H](CC(N)=O)C(N)C(=O)c1cc(=O)c2ccccc2[nH]1 | - | fluorescence | - | 0.0024 µg/mL
CC[C@H](NC(=O)N(C)Cc1ccccn1)C(=O)N[C@@H](Cc1ccc2ccccc2c1)[C@@H]1O[C@@H]1[C@H](Cc1ccc2ccccc2c1)NC(=O)[C@H](CC)NC(=O)N(C)Cc1ccccn1 | - | fluorescence | - | >1000 µg/mL
CC[C@H](C)[C@H](NC(=O)[C@@H]1CCCN1C(=O)[C@@H](O)[C@H](Cc1ccccc1)NC(=O)[C@H](CC(=O)O)NC(=O)[C@H](Cc1ccccc1)NC(=O)[C@@H](N)CO)C(=O)N[C@H](C(N)=O)C(C)C | - | substrate cleavage | pH 5.75 | 0.005 µM
C[C@H](CCC=C(CO)CO)[C@H]1CC[C@@]2(C)C3=CC[C@H]4C(C)(C)C(=O)CC[C@]4(C)C3=CC[C@]12C | - | HPLC | - | >500 µM
Cc1ccc2nc(C(=O)N[C@@H](CC(N)=O)C(=O)N[C@@H](Cc3ccccc3)[C@H](O)Cc3ccccc3C(=O)NC(C)(C)C)ccc2c1 | - | fluorescence | - | 0.001 µg/mL
COc1ccc(C2C3(CO)C4N(C(=O)Cc5ccccc5)C5C2(CO)C2N(C(=O)Cc6ccccc6)C3C4(CO)C(c3ccc(OC)cc3)C52CO)cc1 | - | absorbance | - | >50 µM
COc1cc(C(O)C(C)Oc2ccc([C@@H]3O[C@H](c4ccc(O)c(OC)c4)[C@@H](C)[C@@H]3C)cc2OC)ccc1O | - | HPLC | - | >125 µM
CC(C)C[C@H](NC(=O)[C@@H](NC(=O)CCCCCCCCCCCCCCC(=O)N[C@@H](CC(N)=O)C(=O)N[C@@H](Cc1ccccc1)C(=O)O)C(C)O)C(=O)N[C@H](C(N)=O)C1CCCCC1 | - | - | - | 3.1 µM
CC(C)(C)NC(=O)c1ccccc1C[C@@H](O)[C@H](Cc1ccccc1)NC(=O)[C@H](CC(N)=O)NC(=O)c1ccc2cc(Cl)ccc2n1 | - | fluorescence | - | 0.081 µg/mL
CC(O)[C@H](NC(=O)CCCCCCCCCCCCCCC(=O)N[C@@H](CC(N)=O)C(=O)N[C@@H](CC1CCCCC1)C(=O)O)C(=O)N[C@H](C(=O)N[C@@H](Cc1ccccc1)C(N)=O)C1CCCCC1 | - | HPLC | - | 0.58 µM
O=C(N[C@@H](Cn1ccnc1)C(=O)N[C@@H](Cc1ccccc1)[C@@H]1O[C@@H]1[C@H](Cc1ccccc1)NC(=O)[C@H](Cn1ccnc1)NC(=O)OCc1ccccc1)OCc1ccccc1 | - | fluorescence | - | 0.0695 µg/mL
CC(C)(C)OC(=O)N[C@H](CN[C@@H](Cc1ccccc1)C(=O)N[C@@H](CCC(=O)O)C(=O)N[C@@H](Cc1ccccc1)C(N)=O)Cc1ccccc1 | - | fluorescence | pH 5.0 | 0.012 µM
CC[C@H](C)[C@H](NC(=O)[C@@H](NC(=O)[C@H](Cc1ccccc1)NC(C)=O)[C@@H](C)CC)[C@H](O)[C@@H](O)[C@H](CC1CCCCC1)NC(=O)[C@H](CCC(=O)O)NC(=O)[C@H](Cc1ccccc1)NC(C)=O | - | - | - | 0.35 µM
CC(C)C[C@H](NC(=O)[C@H](CC(=O)O)NC(=O)CCCCCCCCCCCCCCC(=O)N[C@@H](CC(N)=O)C(=O)N[C@@H](Cc1ccccc1)C(=O)O)C(=O)N[C@@H](Cc1ccccc1)C(N)=O | - | - | - | >5.5 µM
CC[C@H](C)[C@H](NC(=O)[C@@H](NC(=O)CCCCCCCCCCCCCCC(=O)N[C@@H](CC(N)=O)C(=O)N[C@@H](CCc1ccccc1)C(=O)O)C(C)O)C(=O)N[C@@H](Cc1ccccc1)C(N)=O | - | HPLC | - | 1.24 µM
C[C@H](CC[C@H](O)C(C)(O)CO)[C@H]1CC[C@@]2(C)C3=CC[C@H]4C(C)(C)C(=O)CC[C@]4(C)C3=CC[C@]12C | - | HPLC | - | 50 µM
CC(C)C[C@H](NC(=O)[C@@H](NC(=O)CCCCCCCCCCCCCCC(=O)N[C@@H](CC(N)=O)C(=O)N[C@@H](Cc1ccccc1)C(=O)O)C(C)O)C(=O)N[C@@H](Cc1ccc(-c2ccccc2)cc1)C(N)=O | - | HPLC | - | 1.09 µM
CC(C)[C@H](NC(=O)OC[C@H](O)CO)C(=O)N[C@@H](Cc1ccccc1)[C@H](O)CNC[C@@H](O)[C@H](Cc1ccccc1)NC(=O)OC(C)(C)C | - | HPLC | pH 5.5 | <10 µM
CC(C)(C)N[C@@H](Cc1ccccc1)[C@H](O)[C@@H](O)[C@H](Cc1ccccc1)NC(=O)[C@H](NC(=O)COc1ccccc1)c1cccs1 | - | - | - | 0.3 µM
COC(=O)N1C2C3(CO)C(c4ccccc4)C4(CO)C1C1(CO)C(c5ccccc5)C2(CO)C3N(C(=O)OC)C41 | - | absorbance | - | >50 µM
CC(C)C[C@H](NC(=O)[C@@H](NC(=O)CCCCCCCCCCCCCCC(=O)N[C@@H](CC(N)=O)C(=O)N[C@@H](Cc1ccccc1)C(=O)O)C(C)C)C(=O)N[C@@H](Cc1ccccc1)C(N)=O | - | - | - | 1.32 µM
CC(C)C[C@H](NC(=O)[C@@H](NC(=O)CCCCCCCCCCCCCCC(=O)N[C@@H](CS(C)(=O)=O)C(=O)N[C@@H](Cc1ccccc1)C(=O)O)C(C)O)C(=O)N[C@@H](Cc1cc(I)c(Oc2cc(I)c(O)c(I)c2)c(I)c1)C(N)=O | - | HPLC | - | 0.46 µM
CC[C@H](C)[C@H](NC(=O)[C@@H]1CCCN1C(=O)[C@H](O)[C@H](Cc1ccccc1)NC(=O)[C@H](CC(N)=O)NC(=O)CCc1ccccc1)C(=O)N[C@H](C(N)=O)C(C)C | - | substrate cleavage | pH 5.75 | 3 µM
C/C(=C\CC[C@@H](C)[C@H]1CC(=O)[C@@]2(C)C3=C(C(=O)C[C@]12C)[C@@]1(C)CC[C@H](O)C(C)(C)[C@@H]1CC3)C(=O)O | - | HPLC | - | 20 µM
CC(C)c1cccc2c(Cl)cc(C(=O)N[C@@H](CC(N)=O)C(=O)N[C@@H](Cc3ccccc3)[C@H](O)Cc3ccccc3C(=O)NC(C)(C)C)nc12 | - | fluorescence | - | 0.001 µg/mL
O=C(COc1ccccc1)N[C@@H](Cc1ccccc1)[C@H](O)[C@@H](O)[C@H](Cc1ccccc1)NC(=O)[C@H](NC(=O)c1cc(=O)c2ccccc2[nH]1)c1cccs1 | - | - | - | 0.008 µM
CC(O)[C@H](NC(=O)CCCCCCCCCCCCCCC(=O)N[C@@H](Cc1ccc(N)cc1)C(=O)N[C@@H](Cc1ccccc1)C(=O)O)C(=O)N[C@@H](CC1CCCCC1)C(=O)N[C@@H](Cc1ccccc1)C(N)=O | - | HPLC | - | 0.87 µM
CC(C)[C@H](N)C(=O)N[C@H](C(=O)N[C@@H](Cc1ccccc1)[C@@H](O)C(=O)N[C@@H](Cc1ccccc1)C(=O)N[C@H](C(=O)N[C@H](C(N)=O)C(C)C)C(C)C)C(C)C | - | substrate cleavage | pH 5.75 | 0.35 µM
C[C@H](Cc1cc2c(cc1O)OCO2)[C@H](C)Cc1cc2c(cc1O)OCO2 | - | HPLC | - | 5.6 µM
CC(C)[C@H](NC(=O)[C@@H](N)Cc1ccccc1)C(=O)N[C@@H](Cc1ccccc1)[C@H](O)CNC[C@@H](O)[C@H](Cc1ccccc1)NC(=O)[C@@H](NC(=O)[C@@H](N)Cc1ccccc1)C(C)C | - | HPLC | pH 5.5 | <10 µM
CC(C)C[C@H](NC(=O)[C@@H](NC(=O)CCCCCCCCCCCCCCC(=O)N[C@@H](CC(N)=O)C(=O)N[C@@H](Cc1ccccc1)C(=O)O)C(C)O)C(=O)N[C@@H](Cc1ccc(-c2ccccc2)cc1)C(N)=O | PR-L10I K45R I54V L63P A71V V82T L90M I93L | - | - | ~1.1 µM
CC(C)[C@H](NC(=O)c1ccc2ccccc2c1)C(=O)N[C@@H](Cc1ccccc1)[C@H](O)CNC[C@@H](O)[C@H](Cc1ccccc1)NC(=O)OC(C)(C)C | - | HPLC | pH 5.5 | <10 µM
CC(C)(C)OC(=O)N1C2C3(CO)C(c4ccccc4)C4(CO)C1C1(CO)C(c5ccccc5)C2(CO)C3N(C(=O)OC(C)(C)C)C41 | - | absorbance | - | 20.1 µM
COC(=O)[C@@H]1CCCN1C(=O)C(=O)C(Cc1ccccc1)NC(=O)OCc1ccccc1.COC(=O)[C@@H]1CCCN1C(=O)C(=O)C(Cc1ccccc1)NC(=O)OCc1ccccc1 | - | fluorescence | - | 3.18 µM
CC(C)C[C@H](NC(=O)[C@@H](NC(=O)CCCNC(=O)[C@H](Cc1ccccc1)NC(=O)[C@H](CCC(=O)O)NC(=O)[C@H](Cc1ccccc1)NC[C@H](Cc1ccccc1)NC(=O)OC(C)(C)C)[C@@H](C)O)C(=O)N[C@@H](CC(N)=O)C(=O)N[C@@H](Cc1ccccc1)C(=O)O | - | fluorescence | pH 7.0 | 0.328 µM
O=C(Oc1ccccc1)N1C2C3(CO)C(c4ccccc4)C4(CO)C1C1(CO)C(c5ccccc5)C2(CO)C3N(C(=O)Oc2ccccc2)C41 | - | absorbance | - | >25 µM
CC1(NC(=O)c2ccccc2C[C@@H](O)[C@H](Cc2ccccc2)NC(=O)[C@H](CC(N)=O)NC(=O)c2ccc3ccccc3n2)CCCCC1 | - | fluorescence | - | 0.00076 µg/mL
CC(C)C[C@H](NC(=O)[C@@H](NC(=O)CCCCCCCCCCCCCCC(=O)N[C@@H](CC(N)=O)C(=O)N[C@@H](CC1CCCCC1)C(=O)O)C(C)O)C(=O)N[C@@H](Cc1ccccc1)C(N)=O | - | - | - | 3.7 µM
CC(C)[C@H](NC(=O)[C@@H](N)Cc1ccccc1)C(=O)N[C@@H](Cc1ccccc1)[C@H](O)CNC[C@@H](O)[C@H](Cc1ccccc1)NC(=O)OC(C)(C)C | - | HPLC | pH 5.5 | <10 µM
COc1ccc(C2C3(CO)C4N(C(C)=O)C5C2(CO)C2N(C(C)=O)C3C4(CO)C(c3ccc(OC)cc3)C52CO)cc1 | - | absorbance | - | >25 µM
C[C@H](CC[C@H](O)C(C)(C)O)[C@H]1CC[C@@]2(C)C3=C(CC[C@]12C)[C@@]1(C)CCC(=O)C(C)(C)[C@@H]1CC3=O | - | HPLC | - | >500 µM
CC(C)[C@H](NC(=O)c1ccc2ccccc2n1)C(=O)N[C@@H](Cc1ccccc1)[C@@H]1O[C@@H]1[C@H](Cc1ccccc1)NC(=O)[C@@H](NC(=O)c1ccc2ccccc2n1)C(C)C | - | fluorescence | - | >1000 µg/mL